Measured values from several laboratories, pooled; numbers as filed in NIAID ChemDB.

All rows: tests in culture; organism: Coxsackie virus; method: cytopathic effect; read-out: EC50

Neighbouring rows are from separate reports. ECn: concentration that inhibits the pathogen or its effect by n%.

SMILES	strain	cell line	result
Cc1nn2c(-c3cn(-c4ccccc4)nc3-c3ccccc3)nnc2s1	TYPE B4	HeLa	>16 µg/mL
CCn1c(-c2ccccc2)c(C)c(=O)c2cc(-c3ccccc3)ccc21	TYPE A7	HeLa S3	>1.9 µg/mL
NC1=CC(c2ccccc2)=Nn2c(nnc2-c2cn(-c3ccccc3)nc2-c2ccccc2)S1	TYPE B4	HeLa	>16 µg/mL
CC1(CO)CCC(Cn2nnc3c(N)ncnc32)C1(C)C	TYPE B4	HeLa	>40 µg/mL
CSc1nc(Cl)c(C=O)c(N2CC[N+]3(CC2)CC[N+]2(CCN(c4nc(SC)nc(Cl)c4C=O)CC2)CC3)n1	B3	HeLa	>70 µg/mL
Nc1ncnc2c1ncn2C1CC(CO)[C@@H](O)[C@H]1O	TYPE B4	VERO	2 µg/mL
CC=NC(=N)c1nc(-c2ccc(C)cc2)n(C/C=C/c2ccccc2)n1	TYPE B4	HeLa	>10 µg/mL
C1C[N+]2(CCN1)CC[N+]1(CCNCC1)CC2	B3	HeLa	>70 µg/mL
CC1(CO)CCC(Cn2nnc3c(=O)[nH]c(N)nc32)C1(C)C	TYPE B4	VERO	>200 µg/mL
C=C(N=CC)c1nc(-c2ccc(C)cc2)n(C2O[C@H](CO)[C@@H](O)[C@H](O)[C@H]2O)n1	TYPE B4	VERO	>100 µg/mL
CC1(CO)CCC(Cc2nc3ncnc(N)c3[nH]2)C1(C)C	TYPE B4	VERO	>10 µg/mL
Nc1c(N2CC[N+]3(CC2)CC[N+]2(CCN(c4nc[nH]c(=O)c4N)CC2)CC3)nc[nH]c1=O	B3	HeLa	>70 µg/mL
CC1(CO)CCC(Cn2cnc3c(Cl)nc(N)nc32)C1(C)C	TYPE B4	VERO	>200 µg/mL
N#CC1=CSc2nnc(-c3cn(-c4ccccc4)nc3-c3ccccc3)n2N=C1N	TYPE B4	VERO	80 µg/mL
CC(C)c1ccc2c(c1)c(=O)cc(-c1cccs1)n2C	TYPE A7	HeLa S3	1.9 µg/mL
C=C(N=CC)c1nc(-c2cccc(C)c2)n(C2O[C@H](CO)[C@@H](O)[C@H](O)[C@H]2O)n1	TYPE B4	HeLa	>400 µg/mL
CC1=Nn2c(nnc2-c2cn(-c3ccccc3)nc2-c2ccccc2)SC1	TYPE B4	HeLa	>3.2 µg/mL
Cc1cn([C@H]2O[C@H](CO)[C@@H](N=[N+]=[N-])[C@H]2F)c(=O)nc1N	TYPE B4	VERO B	>400 µg/mL
Cc1cn([C@@H]2O[C@H](CO)[C@](O)(C(F)(F)F)[C@H]2O)c(=O)[nH]c1=O	B4	VERO	>200 µg/mL
COc1cc2c(cc1OC)[C@@H]1C(N)CSCON1CC2	TYPE B4	HeLa	4 µg/mL
O=c1[nH]n2c(-c3cn(-c4ccccc4)nc3-c3ccccc3)nnc2sc1=O	TYPE B4	VERO	>80 µg/mL
CON1CCc2c([nH]c3ccccc23)[C@@H]1[C@@H](N)CSC	TYPE B4	HeLa	>10 µg/mL
Nc1ncnc2c1ncn2[C@@H]1O[C@H](CO)[C@](O)(C(F)(F)F)[C@H]1O	B4	VERO	>200 µg/mL
O=C1CSc2nnc(-c3cn(-c4ccccc4)nc3-c3ccccc3)n2N1	TYPE B4	HeLa	>16 µg/mL
NC1CSCON2CCc3c([nH]c4ccccc34)[C@H]12	TYPE B4	HeLa	0.7 µg/mL
CC1(CO)CCC(Cn2cnc3c(=O)[nH]c(N)nc32)C1(C)C	TYPE B4	VERO	>400 µg/mL
Nn1c(SCC(=O)O)nnc1-c1cn(-c2ccccc2)nc1-c1ccccc1	TYPE B4	VERO	>80 µg/mL
Cc1nc(N2CC[N+]3(CC2)CC[N+]2(CCN(c4nc(C)[nH]c(=O)c4[N+](=O)[O-])CC2)CC3)c([N+](=O)[O-])c(=O)[nH]1	B3	HeLa	>70 µg/mL
CC1(CO)CCC(Cn2nnc3c(Cl)ncnc32)C1(C)C	TYPE B4	HeLa	>40 µg/mL
Cc1c(-c2ccccc2)n(-c2ccc(F)cc2)c2ccc(C(C)C)cc2c1=O	TYPE A7	HeLa S3	>2 µg/mL
CC=NC(=N)c1nc(-c2ccc(OC)cc2)n(C/C=C/c2ccccc2)n1	TYPE B4	HeLa	>400 µg/mL
[O-][n+]1onc2c(N3CC[N+]4(CC3)CC[N+]3(CCN(c5ncnc6no[n+]([O-])c56)CC3)CC4)ncnc21	B3	HeLa	>70 µg/mL
CCn1c(-c2cccc(F)c2)c(C)c(=O)c2cc(C(C)C)ccc21	TYPE A7	HeLa S3	>4 µg/mL
CCOC(=O)C1Sc2nnc(-c3cn(-c4ccccc4)nc3-c3ccccc3)n2NC1=O	TYPE B4	VERO	>16 µg/mL
Nc1ncnc2c1ncn2[C@@H]1O[C@H](CO)[C@@H](F)[C@H]1O	TYPE B4	VERO B	7 µg/mL
Nc1ncnc2c1ncn2C[C@H](O)CO	TYPE B4	VERO	>200 µg/mL
CC=NC(=N)c1nc(-c2ccc(OC)cc2)n(COCCO)n1	TYPE B4	VERO	>100 µg/mL
Nc1ncnc2c1ncn2C1CC(COP(=O)(O)O)[C@@H](O)[C@H]1O	TYPE B4	HeLa	>10 µg/mL

Repeating the first 3 entries:

Cc1nn2c(-c3cn(-c4ccccc4)nc3-c3ccccc3)nnc2s1 ; strain: TYPE B4 ; cell line: HeLa ; result: >16 µg/mL
CCn1c(-c2ccccc2)c(C)c(=O)c2cc(-c3ccccc3)ccc21 ; strain: TYPE A7 ; cell line: HeLa S3 ; result: >1.9 µg/mL
NC1=CC(c2ccccc2)=Nn2c(nnc2-c2cn(-c3ccccc3)nc2-c2ccccc2)S1 ; strain: TYPE B4 ; cell line: HeLa ; result: >16 µg/mL